Data: paper PMC6658617, “Structure-Guided Identification of Resistance Breaking Antimalarial N‑Myristoyltransferase Inhibitors” (Cell Chemical Biology, 2019)

By UniProt entry, the sequences of proteins in these tests, tags left out. Residues count along the entry.
UniProt A5K1A2, 27-410 G386E limits assumed: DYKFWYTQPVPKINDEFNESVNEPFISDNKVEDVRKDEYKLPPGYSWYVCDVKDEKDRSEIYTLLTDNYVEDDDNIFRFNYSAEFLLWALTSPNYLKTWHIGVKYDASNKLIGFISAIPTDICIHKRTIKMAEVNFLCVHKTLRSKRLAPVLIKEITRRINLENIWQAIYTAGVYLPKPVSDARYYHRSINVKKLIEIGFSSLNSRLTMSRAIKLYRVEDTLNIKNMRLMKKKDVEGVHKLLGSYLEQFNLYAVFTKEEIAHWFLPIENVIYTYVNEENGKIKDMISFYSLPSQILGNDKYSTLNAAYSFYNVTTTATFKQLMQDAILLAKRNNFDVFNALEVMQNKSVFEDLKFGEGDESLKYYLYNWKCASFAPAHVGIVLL

Columns and labels:
PvNMT[G386E] = PvNMT[G386E] (Plasmodium vivax, UniProt A5K1A2, G386E); assay: Surface plasmon resonance (SPR) assay; assay type: binding, P. vivax; details: SPR equilibrium KD, 4 μM myristoylCoA, 25°C
[1] = tested on: P. falciparum 3D7 parasites (PfNMT[WT]); details: read-out: Growth assay PfNMT[WT] EC50; 3D7 WT compared with G386E clones (Figure 3A, Table S2); curves constrained at top and bottom
[2] = tested on: P. falciparum 3D7 PfNMT[G386E] clones; details: for Ratio PfNMT[G386]/PfNMT[WT] EC50, Clone 1 / Ratio PfNMT[G386]/PfNMT[WT] EC50, Clone 2: EC50 of [G386E]/[WT]
[3] = read-out: Growth assay PfNMT[G386E] Clone 1 EC50, 3D7 CRISPR-Cas9 G386E Clone 1
[4] = read-out: Growth assay PfNMT[G386E] Clone 2 EC50, 3D7 CRISPR-Cas9 G386E Clone 2

Row | Compound | decrease in affinity (KD PvNMT[G386E] / KD PvNMT[WT]) (PvNMT[G386E]) | EC50 [1] | Ratio PfNMT[G386]/PfNMT[WT] EC50, Clone 1 [2] | Ratio PfNMT[G386]/PfNMT[WT] EC50, Clone 2 [2] | EC50 [2, 3] | EC50 [2, 4]
1 | Cc1nn(C)c(C)c1Cc1nnc(-c2sc3ccccc3c2OC2CCNCC2)o1 | 100 fold | 80 nM | 19 | 18 | 1500 nM | 1400 nM
2 | c1cnc(OC2CCNCC2)c(-c2nc(Cc3cccc4ncccc34)no2)c1 | 20 fold | 93 nM | 12 | 10 | 1080 nM | 947 nM

Where two headings read alike, the source gives them in different places.
